Four sequences from article PMC8938553 can be followed below.

Tags and fusion partners may be left off the protein sequences shown.

For the data set, the system named is T1, ComK.
T1 sequence (looked up): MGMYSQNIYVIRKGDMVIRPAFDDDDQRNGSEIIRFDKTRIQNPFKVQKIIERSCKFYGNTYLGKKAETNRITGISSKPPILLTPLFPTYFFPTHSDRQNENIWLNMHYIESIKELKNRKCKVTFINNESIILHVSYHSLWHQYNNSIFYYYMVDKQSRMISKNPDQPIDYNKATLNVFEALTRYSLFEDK
The data set is described as follows: EMSA. To be noted: 0-400 nM ComK, 50 mM Tris-HCl pH 7.5, 50 mM KCl, 0.5 mM DTT, 5 mM MgCl2, 0.1 mg/ml BSA, 0.1 nM DNA, 15 min at 37 C, 0.8% agarose gel in TAE, no competitor DNA, recombinant protein, residues 1-191, label: 32P (alpha-dATP, Klenow fill-in), probe letters rebuilt from the primers and the genome.

“AATTCCAAGTTTTAATAACCATAAATAACATGATATAAGCAAAGATTAATATAACTAAGCCAATACCATTTGCAAAGCTAAATGTATCTTTATTAATAAATGCCTCTACACCAGCCAATACATAAATTAAAACGTGTGTTATTGCTAAAAACTTCGAATTTTTAACGCCATATTCAACTGCACCGTCTGCTTTTAATTGTTTTGAGTGATTAATAGATATCTTTAAGCTGACAAGTCTGATACAGAAAAAGATAAGTAATATAGATAGAATCATGATGTCCTCCGTCATTATGTCATATGTATAAGCGTTGATTTTGACAACATAAAGTATTTTATAGATAAAGCTTGTCAAATACTATTAACTATTTATTAATTTTAGTACATAAATATGTTTCTAAGTATGTGTTTATGTTCAGTATTTTGGATAATTTAATAATTTTAAGGATATTAAGCGCTTACACCGACGTGATATATTTGGCTTAACGAAAATGATTGAGGTGACAGAGAGGAATT (double strand) [uhpT promoter]”: the binding result was “binds”.

On to “AATTCCTATTCTTGTCAACTGATTGATTACCTGCGACTGTTGTTACAGCTAATATCTCTAGTGGACTGTCAATTGCCCCCGCTAAAATTAATGCTATTGCATCATCGTGTCCTGGATCACAATCCATAATAATCTTTCTTTTCATTTATATATCCACCTTTCTTAAGTTGTTATCGATAGCTTATGTATATTTATTTATGTGGTGAATCATGTTTATTTTGAAAAATAGTTTTAACTTTCTCATATTTTTGGATACAAACACTATTTATCTATTTTATGGCTTATAAATTTATCCGATATGCCTTATCAACCTACCTCGCTAAAAATAGGATGTCTACATATCTATACCGACTTTTGTCAACTCATTTTCACAACAATATAAACAGCAATTTATATGATTGTTACATGATTCAAACAATTTTTATGAAAAATATTTTCATACACAGAATATATATTGATATTAAATTTCTCAAAAGCTATATTGAGAATAATTAGGAGGGATGTTGAGGAATT (double strand) [glcC promoter]”, for which the binding result is “binds”. Same read-out and setting: the entry for “AATTCCATTTGTTTTTATTTGTTAGCGAAGGTTTACTTAAAGGTTATTTATACCTTGAAATTGATTCACAACAGTCAATCGCCGAGATTAAATACTTCAGTTCTCATGTAGATTACCGTTTGAAAGGTATCGCTTTCGAGTTGCTTGCGTATGCATTGCAATATGCTTTTGATAATTTTGATATTAGAAAAGTTTATTTTAAAATTCGTAATAAAAATAATAAACTCATCGAACGATTTAATGGTCTAGGTTTCCATATCAACTATGAGTACATTAAATTCAAATTCGAATCACGTAACGTAAAAGATCAAACAATCCCTGAATAAAACACCAAGCAAATACCCTACAGTACATCATTAGCATGTATTGTGGGTTTTTCTACTTTTTGTAAATATTGAAAATTATAAGTAGTTGTTTTTTACTATTAGGGCAGAATGCTTTACAATAACATGCAAGTGTCAATTAAGGGGAGCACTTGCATAAATAGTATAGGAGAGTGAGTAGTCTGGAATT (double strand) [glcU promoter]” is “binds”.

As for “AATTGAAAAAACACCTCCTACATATAATCACGTAGGAGGTGTTTTTATTACTTCAATTTAACCGTGTAAAAATGGATTTAATTGTTCATCATCAACCGTCGTATATGGACCATGTCCAGGGAATAAAGGTAAATCGCCTTCTAATTCAAATATTTTATCTTGAATAGAATCAACTAGCGTTTCATAATCACCTTTATATAAATCTGTACGTCCGATTCCATTATTAAATAATGTATCTCCAACAACTGCGAATTCATCGAACACATATGTTAAACTTCCTGGTGAATGTCCAGGTGTGTGTAACACATTAAACTTAAATCCTTCTATTTCTGTGCTACCTTCGTTTAACTTTTCAGGAGTTACCTTACTTGTAATAATTGGTAATCCATATTGCTTAAATTTATCTGCCCCATTTTTAACGGGATCTTTTAGAAAATCAAACTCTGCTTCATGCATATAAACCGGGACATCGAATCGATCAACTATATCATCGACTGCTCCGATATCAATT (double strand) [comG (comGA) promoter]”, under “complex retained in well”, the binding result is on record as “binds”.
